Results of unrelated studies side by side (data: NIAID ChemDB).

Common to all: tests in culture

Inhibition is in % at the dose shown (toxicity tests: loss of growth or viability). MIC50, MIC90 and the like: level of inhibition, or share of isolates inhibited. ECn is the concentration giving n% inhibition of infection, replication or growth. An empty or dashed field is not shown. Rows are shuffled and stem from different studies.

structure	cells	method	endpoint	strain	species	dose	value
COc1cc(O)c2c(O)c(C(=O)c3ccccc3)oc2c1			inhibition		Cryptosporidium parvum	50 µM	19%
COc1c2c(c(O)c3ccccc13)C(=O)c1cnn(C)c1C2=O			EC50		Cryptosporidium parvum		<10 µM
CCOC(=O)c1c(C)nc(NCCCCNc2ccnc3cc(Cl)ccc23)nc1-c1ccc(F)cc1			MIC99	L-28/02	Cryptococcus gattii		8 µg/mL
C[C@@H](c1ncncc1F)[C@](O)(Cn1cncn1)c1ccc(F)cc1F		broth dilution	MIC	A 47496	Cryptococcus gattii		0.008 µg/mL
C[C@@H](c1ncncc1F)[C@](O)(Cn1cncn1)c1ccc(F)cc1F		broth dilution	MIC90	VG IIc	Cryptococcus gattii		0.5 µg/mL
CN[C@H]1CC[C@@H](c2ccc(Cl)c(Cl)c2)c2ccccc21		broth dilution	MFC	A2-102-5	Cryptococcus neoformans		8 µg/mL
O=C1/C(=C/c2ccc(O)c(O)c2)Oc2cc(O)ccc21			inhibition		Cryptosporidium parvum	25 µM	76%
NCCCC[C@H](NC(=O)[C@H](CCCN=C(N)N)NC(=O)[C@H](CCCN=C(N)N)NC(=O)[C@H](CCCCN)NC(=O)[C@H](CCCCN)NC(=O)[C@@H](N)CCCCN)C(=O)N[C@@H](CCCN=C(N)N)C(=O)O			inhibition	ATCC 32264	Cryptococcus neoformans	50 µM	19%
Cc1cc(O)c2c(c1)C(=O)c1c(cnn1C)C2=O			EC50		Cryptosporidium parvum		>100 µM
O=C1/C(=C/c2ccc(O)cc2)Oc2cc(O)ccc21			inhibition		Cryptosporidium parvum	25 µM	31%
CC(=O)OC[C@H]1O[C@@H](O[C@@H]2[C@@H](N=[N+]=[N-])[C@H](O)[C@H](O)[C@H]3OC(C)(C)O[C@H]32)[C@H](OC(C)=O)[C@@H](OC(C)=O)[C@H]1OC(C)=O		broth dilution / turbidity	inhibition	ATCC 32264	Cryptococcus neoformans	250 µg/mL	45.87%
CC(=O)Oc1ccccc1C(=O)Nc1ncc([N+](=O)[O-])s1	MDBK	cell count	inhibition		Cryptosporidium parvum	1 µg/mL	44%
O=[N+]([O-])c1ccc(C=Nc2ccccc2O)cc1			MIC99	135L/03	Cryptococcus gattii		16 µg/mL
COc1cc(/C=C/C=C\c2ccc3c(c2)OCO3)oc(=O)c1			inhibition		Cryptosporidium parvum	25 µM	6%
CCOC(=O)c1c(C)nc(NCCCNc2ccnc3cc(Cl)ccc23)nc1-c1ccccc1			MIC99	29/10893	Cryptococcus gattii		4 µg/mL
COc1cc(/C=C2\Oc3cc(O)cc(O[C@@H]4O[C@H](CO)[C@@H](O)[C@H](O)[C@H]4O)c3C2=O)cc(OC)c1OC(C)=O			inhibition		Cryptosporidium parvum	50 µM	10%
CC[C@@H](C(=O)[C@@H](C)[C@@H](O)[C@H](C)CCc1ccc(C)c(O)c1C(=O)O)[C@H]1O[C@](CC)([C@H]2CC[C@](O)(CC)[C@H](C)O2)C[C@@H]1C	MDCK	luminescence	inhibition	IOWA	Cryptosporidium parvum	0.1 µg/mL	17.2%
O=C(c1ccccc1)c1oc2cc(O)cc(Cc3ccccc3)c2c1O			inhibition		Cryptosporidium parvum	25 µM	4%
CC[C@H]1OC(=O)[C@H](C)[C@@H](O[C@H]2C[C@@](C)(OC)[C@@H](O)[C@H](C)O2)[C@H](C)[C@@H](O[C@@H]2O[C@H](C)C[C@H](N(C)C)[C@H]2O)[C@](C)(O)C[C@@H](C)CN(C)[C@H](C)[C@@H](O)[C@]1(C)O	A549		inhibition		Cryptosporidium parvum	0.5 µg/mL	4.2%
CCOC(=O)c1c(C)nc(OCCCNc2ccnc3cc(Cl)ccc23)nc1-c1ccccc1			MIC99	96806	Cryptococcus neoformans		45.3 µg/mL
COc1cc(/C=C2\Oc3cc(O)cc(O[C@@H]4O[C@H](CO)[C@@H](O)[C@H](O)[C@H]4O)c3C2=O)cc(OC)c1O			inhibition		Cryptosporidium parvum	10 µM	0%
Cn1nc(Cc2ccc(Cl)cc2)c2ccccc2c1=O		broth dilution	MIC50	ATCC 32264	Cryptococcus neoformans		3.9 µg/mL
O=C1/C(=C/c2cccc(O)c2)Oc2cc(O)ccc21			inhibition		Cryptosporidium parvum	10 µM	14%
CC(=O)Oc1cccc2c1C(=O)c1c(cnn1C)C2=O			inhibition		Cryptosporidium parvum	50 µM	100%